{"source": "patent US20200245620A1", "about": "(priority 2018, published 2020)", "test_system": "Carbendazim-resistant fusarium asiaticum", "experiment": "DON toxin synthesis capability in GYEP liquid culture", "assay_type": "cell-based", "details": "different doses of jinggangmycin; dry weight of hyphae vs blank control"}
{"smiles": "OCC1=C[C@H](N[C@H]2C[C@H](CO)[C@@H](O[C@@H]3O[C@H](CO)[C@@H](O)[C@H](O)[C@H]3O)[C@H](O)[C@H]2O)[C@H](O)[C@@H](O)[C@@H]1O", "note": "[Jinggangmycin]", "values": [{"measurement": "inhibitory effect on the growth of the fusarium head blight fungi cultured in liquid", "result": "does not have the inhibitory effect on the growth"}]}
